Experiments:
[1] = system: L. donovani axenic amastigotes; settings: presence vs absence of folinic acid
L. donovani LV82 = test: Murine visceral leishmaniasis model
[2] = system: J774A.1 (mouse macrophage cell line); settings: J774.A1, read-out: EC50 J774A.1 in the absence of folinic acid
[3] = pH 7.4 vs pH 4.0
visceral leishmaniasis = settings: cited from earlier work
[4] = system: L. donovani MHOM/NP/02/BPK164/1; settings: originally found; cited from earlier work

For `CCc1nc(N)nc(N)c1-c1ccc(Cl)cc1` [pyrimethamine, reference compound], the “effect of folinic acid on EC50, L. donovani axenic amastigotes” value (“effect of folinic acid on EC50” below) [1] was “dramatically increased the EC50 values”.
In the case of `CNc1nc(NCc2ccccc2)nc2ccccc12` [Compound 15, N^2-Benzyl-N^4-methylquinazoline-2,4-diamine], the “antileishmanial efficacy (liver parasitemia)” value (L. donovani LV82; 5 × 30 mg/kg ip) is reported as “did not show significant antileishmanial efficacy”.
With `c1ccc(CNc2nc(NCc3ccccc3)c3ccccc3n2)cc1` [Compound 10, N^2,N^4-Dibenzylquinazoline-2,4-diamine] the EC50 [2] was 84.2 ± 2.8 µM.
For `CCCCNc1nc(NCc2ccccc2)nc2ccccc12` [Compound 16, N^2-Benzyl-N^4-butylquinazoline-2,4-diamine], the “decrease in permeability from neutral to acidic pH” value [3] was 3 fold and the “parasite burden vs vehicle control group” value (L. donovani LV82; 5 × 10 mg/kg ip, 45% HPβCD vehicle) was “no significant difference”.
With `Cc1ccc2c(NCc3ccco3)nc(NC(C)C)nc2c1` [Compound 23, N^4-(Furan-2-ylmethyl)-N^2-isopropyl-7-methylquinazoline-2,4-diamine] the “decrease in permeability from neutral to acidic pH” value [3] was roughly 12 fold and the “inhibition of liver parasitemia” value (L. donovani LV82; 5 × 15 mg/kg ip, compared to the vehicle control) was 37%.
For `C[C@@H]1[C@H](O)[C@@H](C)/C=C/C=C/C=C/C=C/C=C/C=C/C=C/[C@H](O[C@@H]2O[C@H](C)[C@@H](O)[C@H](N)[C@@H]2O)C[C@@H]2O[C@](O)(C[C@@H](O)C[C@@H](O)[C@H](O)CC[C@@H](O)C[C@@H](O)CC(=O)O[C@H]1C)C[C@H](O)[C@H]2C(=O)O` [Amphotericin B], the cure rate (visceral leishmaniasis) is given as “over 90%”.
In the case of `O.O.O.O.O.O.O.O.O.O=C([O-])[C@@H]1[O][Sb](=[O])([O][Sb]2(=[O])[O][C@H]([C@H](O)CO)[C@H](O)[C@H](C(=O)[O-])[O]2)[O][C@H]([C@H](O)CO)[C@@H]1O.[Na+].[Na+].[Na+]` (some centres unmarked) [sodium stibogluconate], the “fold resistance of BPK164/1 compared to reference strain BPK206/0” value [4] is listed as 6 fold.
In the case of `CCCCCCCCCCCCCCCCOP(=O)([O-])OCC[N+](C)(C)C` [miltefosine], the “effect of folinic acid on EC50” value [1] is reported as “not affected”.
For `CN(Cc1cnc2nc(N)nc(N)c2n1)c1ccc(C(=O)N[C@@H](CCC(=O)O)C(=O)O)cc1` [methotrexate, reference compound], the “effect of folinic acid on EC50” value [1] was “dramatically increased the EC50 values”.

— paper PMC4216219 (Journal of Medicinal Chemistry, 2014)
